Assay results from publication PMC3041239 (Journal of Medicinal Chemistry, 2011).

System: rats with carrageenan-induced inflammatory hyperalgesia
Details: 170 nmol/kg sc with naloxone methiodide 426 nmol/kg sc; mechanical hyperalgesia

CN1CC[C@]23c4c5ccc(O)c4O[C@H]2[C@@H](NCC(=O)O)CC[C@@]3(OCCCc2ccccc2)[C@H]1C5.Cl.Cl [Compound 13, [[4,5α-Epoxy-3-hydroxy-17-methyl-14β-[(3-phenylpropyl)oxy]morphinan-6α-yl]amino]acetic Acid Dihydrochloride] was tested, and the “effect of coadministered naloxone methiodide on the antinociceptive effect” value was “significantly reversed”.
